SMILES strings stand for the structures. Only a part is listed here, and it is no random draw. Activity calls are given as the source filed them. Cut-off read from the data, not from the text of the source: active = inhibition above about 30%; inconclusive = no clear call, values can overlap the other calls; inactive = below that.

By UniProt entry, the sequences of proteins in these tests, tags left out.
UniProt P9WHJ3, whole entry: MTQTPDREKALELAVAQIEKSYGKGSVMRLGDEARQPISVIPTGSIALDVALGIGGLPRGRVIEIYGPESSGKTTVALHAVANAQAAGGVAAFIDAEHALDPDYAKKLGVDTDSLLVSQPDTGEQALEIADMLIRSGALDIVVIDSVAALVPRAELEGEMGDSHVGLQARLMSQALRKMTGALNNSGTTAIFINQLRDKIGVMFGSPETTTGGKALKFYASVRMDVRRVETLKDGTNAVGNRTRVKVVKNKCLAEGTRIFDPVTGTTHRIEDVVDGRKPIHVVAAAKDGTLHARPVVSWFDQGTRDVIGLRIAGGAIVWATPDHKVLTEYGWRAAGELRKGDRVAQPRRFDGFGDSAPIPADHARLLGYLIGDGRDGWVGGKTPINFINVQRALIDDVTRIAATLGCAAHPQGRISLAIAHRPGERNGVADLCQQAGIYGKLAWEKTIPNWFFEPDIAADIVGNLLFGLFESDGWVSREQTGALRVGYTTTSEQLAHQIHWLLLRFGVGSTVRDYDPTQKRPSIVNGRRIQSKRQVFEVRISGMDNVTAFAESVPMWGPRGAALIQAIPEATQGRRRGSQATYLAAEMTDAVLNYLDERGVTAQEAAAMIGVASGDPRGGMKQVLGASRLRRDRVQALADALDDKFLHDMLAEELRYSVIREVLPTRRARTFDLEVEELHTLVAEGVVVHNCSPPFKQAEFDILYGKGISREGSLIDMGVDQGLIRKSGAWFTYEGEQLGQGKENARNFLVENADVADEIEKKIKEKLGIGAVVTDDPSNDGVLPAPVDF

What is called inhibition is the change of the read-out against control, counted positive when it falls.

This test addresses Protein RecA (Mycobacterium tuberculosis (strain ATCC 25618 / H37Rv)) (UniProt P9WHJ3). Briefly: Mtb RecA intein splicing inhibitors, primary screen, biochemical, fluorescence, HTS (AID 2221).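 Note: 0% = vehicle wells and 100% = reference inhibitor control wells.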 The conditions noted are these: cell-free RecA intein splicing, stronger effect = higher value, concentration not given here.
With `COc1cc(OC)cc(C(=O)NCC2(N3CCCCC3)CCCCC2)c1`, the inhibition was inactive: 0.134%. Take `Cc1ccc(C(=O)NCC2(N3CCCCC3)CCCCC2)o1`: the inhibition was inactive: -0.773%. On to `Fc1ccccc1NC1CCN(Cc2ccccc2)CC1`, for which the inhibition was inactive: 2.4%. In the case of `CCN1CCC(Nc2cccc(F)c2)CC1` it was inactive: 5.21%; in that of `CN(C)c1ccc(C(=O)NCC2(N3CCCCC3)CCCCC2)cc1`, inactive: -0.851%.

Consider `CN1CCC(Nc2ccc(F)c(Cl)c2)CC1`, for which the inhibition was inactive: -1.06%.

Turning to `CCCOc1ccc(C(=O)NCC2(N(C)C)CCCCC2)cc1`, the inhibition was inactive: -0.145%. For `O=C(O)C1(Nc2ccccc2)CCN(Cc2ccccc2)CC1`, the inhibition was inactive: -0.365%. As for `CCC(CO)(C(=O)OC1CN2CCC1CC2)c1ccccc1` (stereo unspecified), the inhibition was inactive: -1.71%. In the case of `COc1cc(OC)cc(C(=O)NCC2(N3CCOCC3)CCCCC2)c1` it was inactive: 0.2%.

`COc1cccc(C(=O)N(c2cc(C)cc(C)c2)C2CCN(C(=O)OC(C)(C)C)CC2)c1`: the inhibition was inactive: 4.73%.

As to `CCCOc1ccc(C)cc1CN(CCCl)CCCl`, the inhibition was inactive: 2.68%. Consider `CN1CCC(Nc2ccc(Cl)cc2)CC1`, for which the inhibition was inactive: 2.67%.

Turning to `COc1ccc(C(=O)NCC2(N3CCOCC3)CCCCC2)cc1OC`, the inhibition was inactive: -1.37%. Next, `N/C(=N\O)c1c(N)no[n+]1[O-]`: inactive: -1.46%; `CCOC(=O)N1CCC(Nc2ccc(C)cc2)CC1`: inactive: -1.86%; `CCc1cc(C(=O)NCC2(N3CCCCC3)CCCCC2)sc1C`: inactive: 0.757%. In the case of `O=C(OC1CN2CCC1CC2)C1c2ccccc2C=Cc2ccccc21` (stereo unspecified) it was inactive: -2.93%. In the case of `CC(C)(C)OC(=O)N1CCC(N(C(=O)c2ccccc2)c2ccc(Cl)cc2)CC1` it was inactive: 0.0667%; in that of `N#Cc1ccc(C(=O)NCC2(N3CCCCC3)CCCCC2)cc1`, inactive: 0.0742%; in that of `c1ccc(CN2CCC(Nc3ccccc3)CC2)cc1`, inactive: -0.179%. `CCCN1CCC(Nc2cc(OC)cc(OC)c2)CC1`: the inhibition was inactive: -3.67%. Consider `CN(C)C1(CNC(=O)c2cccc(C#N)c2)CCCCC1`, for which the inhibition is inactive: -2.1%. Next, `O=C(NCC1(N2CCCCC2)CCCCC1)c1ccc(OC(F)F)cc1`: inactive: -0.663%; `O=C(NCC1(N2CCCCC2)CCCCC1)c1cccc([N+](=O)[O-])c1`: inactive: 0.071%. `CCN1CCC(Nc2ccc(Cl)cc2)CC1`: the inhibition is inactive: 3.99%.

Take `N#CC1(Nc2ccccc2)CCN(CCc2ccccc2)CC1`: the inhibition is inactive: -4.53%. Next, `O=C(NCC1(N2CCCCC2)CCCCC1)c1cccc(C(F)(F)F)c1`: inactive: -1.07%; `CN1CCN(CCOC(=O)C(O)(c2ccccc2)c2ccccc2)CC1`: inactive: -0.0448%. Turning to `COc1ccc(NC2CCN(C(=O)OC(C)(C)C)CC2)cc1`, the inhibition is inactive: 0.94%.

As to `COc1cc(C(=O)NCC2(N3CCCCC3)CCCCC2)ccc1OC(F)F`, the inhibition was inactive: 1.12%. In the case of `O=C(NCC1(N2CCOCC2)CCCCC1)c1cc(=O)[nH]c2ccccc12` it was inactive: 0.784%; in that of `COc1ccc(CN(CCCl)CCCl)cc1Cl`, inactive: 4.44%; in that of `CN(C)c1cccc(C(=O)NCC2(N3CCCCC3)CCCCC2)c1`, inactive: 1.51%. Next, `CC(C)c1ccc(NC2CCN(C(=O)OC(C)(C)C)CC2)cc1`: inactive: 1.11%; `COc1cc(OC)c(C(=O)NCC2(N(C)C)CCCCC2)cc1OC`: inactive: -1.32%; `CN1CCC(Nc2cccc(F)c2)CC1`: inactive: -1.15%. Regarding `CCCOc1ccc(C(=O)NCC2(N(C)C)CCCCC2)cc1OC`, the inhibition was inactive: -0.74%. Next, `O=C(NCC1(N2CCCCC2)CCCCC1)c1ccc(=O)[nH]c1`: inactive: 0.748%.

On to `O=C(NCC1(N2CCCCC2)CCCCC1)c1cccs1`, for which the inhibition was inactive: 8.99%. In the case of `COc1ccc(C(=O)NCC2(N3CCCCC3)CCCCC2)cc1` it was inactive: 2.39%; in that of `CC(C)(C)OC(=O)N1CCC(N(C(=O)c2ccccc2)c2ccc(F)cc2)CC1`, inactive: -0.97%; in that of `COc1ccc(C(=O)NCC2(N3CCCCC3)CCCCC2)c(OC)c1OC`, inactive: 1.77%. Turning to `O=C(NCC1(N2CCOCC2)CCCCC1)c1cc2ccccc2o1`, the inhibition was inactive: 2.2%. In the case of `O=C(NCC1(N2CCCCC2)CCCCC1)c1ccc(Cl)nc1` it was inactive: 1.36%. As for `Cc1cc(C)cc(N(C(=O)c2ccccc2)C2CCN(C(=O)OC(C)(C)C)CC2)c1`, the inhibition was inactive: 12.8%.

As for `CCOC(=O)N1CCC(Nc2ccc(OC)cc2)CC1`, the inhibition was inactive: -4.3%. Take `N#CC1(Nc2ccccc2)CCN(Cc2ccccc2)CC1`: the inhibition is inactive: 0.0291%. In the case of `O=C(OC1CN2CCC1CC2)C1c2ccccc2Oc2ccccc21` (stereo unspecified) it was inactive: -1.26%; in that of `CCOc1ccc(C)cc1CN(CCCl)CCCl`, inactive: 2.93%; in that of `O=C(NCC1(N2CCCCC2)CCCCC1)c1ccc(F)cc1`, inactive: -0.425%. In the case of `COc1ccc(NC2CCN(CCc3ccccc3)CC2)c(OC)c1` it was inactive: -4.17%.

For `CCOC(=O)N1CCC(Nc2ccc(F)cc2)CC1`, the inhibition was inactive: -3.87%. In the case of `CCOC(=O)N1CCC(Nc2cccc(C)c2)CC1` it was inactive: 2.46%; in that of `COc1cc(C(=O)NCC2(N(C)C)CCCCC2)ccc1OC(F)F`, inactive: -0.145%; in that of `Cc1ccc(OCC(C)C)c(CN(CCCl)CCCl)c1`, inactive: 5.13%.

The record behind these values is PubChem BioAssay AID2221 (Broad Institute, 2009).
